Anti-infective test results gathered from many reports (values: NIAID ChemDB through PubChem).

All rows: tests in culture; organism: HIV-1

An empty or dashed field is not shown. Rows are shuffled and stem from different studies. a–b is a range or a potency band. ECn is the concentration giving n% inhibition of infection, replication or growth.

smiles	read by	cells	strain or isolate	endpoint	changes	result
CC(C)Nc1cccnc1N1CCN(C(=O)c2cc3ccccc3[nH]2)CC1	syncytia	CEM	IIIB	EC50	-	0.04 µM
COC(=O)c1cc(O)c(OS(=O)(=O)[O-])c(OC)c1.[Na+]	syncytia	C8166	IIIB	EC50	-	110 µg/mL
CC[C@H](C)[C@H](NC(=O)[C@H](OCc1ccccc1)[C@H](O)[C@@H](O)[C@@H](OCc1ccccc1)C(=O)N[C@H](C(=O)NC)[C@@H](C)CC)C(=O)NC	cytopathic effect	MT-4	-	EC50	-	1.17 µM
Cc1c(O)cccc1C(=O)N[C@@H](CSc1ccccc1)[C@H](O)CN1C[C@H]2CCCC[C@H]2C[C@H]1C(=O)NC(C)(C)CO	cytopathic effect / MTT	MT-2	IIIB	EC50	-	0.0856 µM
CC(C)(c1cc2cnccc2o1)N1CCN(C[C@@H](O)C[C@@H](Cc2ccccc2)C(=O)N[C@H]2c3ccccc3OC[C@H]2O)[C@H](C(=O)NCC2CC2)C1	p24	MT-4	NL4-3	EC95	-	0.046 µM
CCCO[C@@H](C(=O)N[C@H](C(=O)NC)C(C)C)[C@H](O)[C@@H](O)[C@@H](OCCC)C(=O)N[C@H](C(=O)NC)C(C)C	cytopathic effect	MT-4	-	EC50	-	>192 µM
CCCCCCCCC#Cc1cn(C/C=C/C(O)CO)c(=O)[nH]c1=O	RT activity	PBMC	LAI	EC90	-	>100 µM
Cc1cc(C)cc(Cc2nc(OC3CCCC3)[nH]c(=O)c2C)c1	cytopathic effect / MTT	MT-4	IIIB	EC50	-	29 µM
C/C=C/CSc1cc(NC(=S)c2ccsc2C)ccc1Cl	cytopathic effect / XTT	CEM + CEM-SS	NL4-3 (RT M184V)	EC50	RT-M184V	0.1 µM
Cc1cccc(Cc2cc(=O)[nH]c(OC3CCCC3)n2)c1	cytopathic effect / MTT	MT-4	IIIB	EC50	-	2.8 µM
C=CCOC(=O)NC1CCCN(CC(=O)NN[C@@H](CC(N)=O)C(=O)N[C@@H](Cc2ccccc2)C(=O)O)C1=O	MTT	-	-	EC50	-	>125 µg/mL
Cc1ccnc2c1NC(=O)c1cccnc1N2C1CC1	cytopathic effect / XTT	CEM + CEM-SS	RF	EC50	-	0.2 µM
CCCCCCCCc1cc2cn(C/C=C/C(O)CO)c(=O)nc2o1	RT activity	PBMC	LAI	EC90	-	>100 µM
CNC(=O)[C@@H](NC(=O)[C@H](OCc1ccc(-c2ccccn2)cc1)[C@H](O)[C@@H](O)[C@@H](OCc1ccc(-c2ccccn2)cc1)C(=O)N[C@H](C(=O)NC)C(C)C)C(C)C	cytopathic effect	MT-4	-	EC50	-	0.64 µM
C=CCOC(=O)N[C@H]1CCCN(CC(=O)Nc2ccc(N)cc2)C1=O	MTT	-	-	EC50	-	>125 µg/mL
CC(C)CN(C[C@@H](O)[C@H](Cc1ccccc1)NC(=O)[C@@H](NC(=O)CNCc1cccc(F)c1)C(C)(C)C)S(=O)(=O)c1ccc(N)cc1	virus yield	MT-2	RF	EC90	-	0.0078 µM
O=c1[nH]c2c(c(=O)[nH]1)C(c1ccccc1)c1c([nH]c(=O)[nH]c1=O)O2	cytopathic effect	MT-4	L1	EC50	-	116.3 µM
CC(C)(c1cc2cnccc2o1)N1CCN(C[C@@H](O)C[C@@H](Cc2ccccc2)C(=O)N[C@H]2c3ccccc3OC[C@H]2O)[C@H](C(=O)NCc2cccs2)C1	p24	MT-4	NL4-3	EC50	-	<0.094 µM
CC(C)CN(C[C@@H](O)[C@H](Cc1ccccc1)NC(=O)[C@@H](NC(=O)CNCc1cccc(F)c1)C(C)(C)C)S(=O)(=O)c1cccc(N)c1	virus yield	MT-2	THAI 9466	EC50	-	<0.011 µM
CCCCCc1ccc(-c2cc3cn(COCCO)c(=O)nc3o2)cc1	RT activity	PBMC	LAI	EC50	-	>100 µM
C=C(C)OC(=O)N1c2cc(Cl)ccc2NC(=S)C1(C)C	syncytia	CEM	TIBO-2(RT-K103N)	EC50	RT-K103N	0.18 µM
Cc1ccnc2c1NC(=O)c1cccnc1N2C1CC1	MTT	-	IIIB	EC50	-	0.312 µM
CC(C)Nc1cccnc1N1CCN(C(=O)c2cc3cc(NS(C)(=O)=O)ccc3[nH]2)CC1	MTT	MT-4	IIIB	EC50	-	0.743 µM
Cc1cn([C@H]2C[C@H](N=[N+]=[N-])[C@@H](CO)O2)c(=O)[nH]c1=O	-	PBMC	3TC-resistant (RT M184V)	EC50	RT-M184V	<0.003 µM
Cc1cc(C)cc(Cc2cc(=O)[nH]c(OC(C)C)n2)c1	cytopathic effect / MTT	MT-4	IIIB	EC50	-	3.1 µM
CCNC(=O)[C@@H]1CN(C(C)(C)c2cc3cnccc3o2)CCN1C[C@@H](O)C[C@@H](Cc1ccccc1)C(=O)N[C@H]1c2ccccc2OC[C@H]1O	p24	MT-4	NL4-3	EC95	-	0.031 µM
Nc1ccn([C@@H]2O[C@H](CO)C=C2F)c(=O)n1	-	PBMC	3TC-resistant (RT M184V)	EC50	RT-M184V	<1.8 µM
Cc1ccnc2c1NC(=O)c1cccnc1N2C1CC1	cytopathic effect	MT-4	NL4-3	EC50	RT-K103N Y181C	>15 µM
CCCCCc1cc2cn(COCCO)c(=O)nc2o1	RT activity	PBMC	LAI	EC90	-	19.8 µM
COC(=O)[C@@H](NC(=O)[C@H](OCc1ccccc1)[C@H](O)[C@@H](O)[C@@H](OCc1ccccc1)C(=O)N[C@H](C(=O)OC)C(C)C)C(C)C	cytopathic effect	MT-4	-	EC50	-	>56 µM
O=C(O)c1cn(C2CC2)c2c(OC(F)F)c(N3CCN(c4ncccn4)CC3)c(F)cc2c1=O	cytopathic effect / MTT	MOLT-4	IIIB	EC50	-	0.39 µM
COc1ccc(S(=O)(=O)N(CC(C)C)CC(O)C(NC(=O)O[C@H]2CCOC2)Sc2ccccc2)cc1	cytopathic effect	MT-4	BRU	EC50	-	0.1–1 µM
CCc1cc(NCc2nc3c(Cl)ccc(Cl)c3o2)c(=O)[nH]c1C	syncytia	CEM	IIIB	EC50	-	0.02 µM
COc1cc(O)ccc1O[C@@H]1O[C@H](CO)[C@@H](O)[C@H](O)[C@H]1O	syncytia	C8166	IIIB	EC50	-	55.08 µg/mL
CC(C)(c1cc2cnccc2o1)N1CCN(C[C@@H](O)C[C@@H](Cc2ccccc2)C(=O)N[C@H]2c3ccccc3OC[C@H]2O)[C@H](C(=O)NCC(F)(F)F)C1	p24	-	4X (PR M46I L63P V82T I84V) Recombinant	EC50	PR-M46I L63P V82T I84V	0.008 µM
CNC(=O)C(NC(=O)[C@H](OCc1ccc(-c2cccc([N+](=O)[O-])c2)cc1)C(O)C(O)[C@@H](OCc1ccc(-c2cccc([N+](=O)[O-])c2)cc1)C(=O)NC(C(=O)NC)C(C)C)C(C)C	cytopathic effect	MT-4	-	EC50	-	0.16 µM
Cc1cn([C@H]2C[C@H](N=[N+]=[N-])[C@@H](CO)O2)c(=O)[nH]c1=O	RT activity	MT-2	IIIB	EC50	-	0.001 µM
Cc1cn([C@H]2C[C@H](N=[N+]=[N-])[C@@H](CO)O2)c(=O)[nH]c1=O	cytopathic effect	MT-4	KK-39-5	EC50	-	>1 µg/mL
COc1cc([C@H]2c3cc(O)c(OC)cc3C[C@@H](CO)[C@@H]2COS(=O)(=O)[O-])ccc1O.[Na+]	syncytia	C8166	IIIB	EC50	-	74.9 µg/mL
CC(C)=CCN1Cc2cc(Cl)cc3[nH]c(=S)n(c23)C[C@@H]1C	syncytia	CEM	Pyr(RT-Y181C)	EC50	RT-Y181C	6.2 µM
CC(C)Nc1cccnc1N1CCN(C(=O)c2cc3cc(NS(C)(=O)=O)ccc3[nH]2)CC1	p24	PBL	IIIB	EC50	-	0.0001–0.001 µM
N#Cc1ccc(Nc2nc(Cc3c(Cl)cccc3Cl)nc(NO)n2)cc1	cytopathic effect / MTT	MT-4	NNRTI-resistant (RT K103N Y181C)	EC50	RT-K103N Y181C	0.353 µM
CC(C)(C)NC(=O)[C@@H]1CN(S(C)(=O)=O)CCN1C[C@@H](O)C[C@@H](Cc1ccccc1)C(=O)N[C@H]1c2ccccc2C[C@H]1O	p24	MT-4	IIIB	EC95	-	0.4 µM
NC(=O)c1ccc(Cn2cc(CSc3nc(Cc4c(Cl)cccc4Cl)c(I)c(=O)[nH]3)nn2)cc1	MTT	-	IIIB	EC50	-	>94.13 µM
Cc1cccc(Cc2nc(OC(C)C)[nH]c(=O)c2C)c1	cytopathic effect / MTT	MT-4	IIIB	EC50	-	>367 µM
CCCc1cc(=O)oc2c3c(c4c(c12)OC(C)(C)C=C4)O[C@@H](C)[C@H](C)[C@@H]3O	cytopathic effect / XTT	CEM + CEM-SS	UC781-R (RT-Y181C)	EC50	RT-Y181C	<0.15 µM
Cc1cc(SC2=C(O)C[C@@](CCc3ccc(O)cc3)(c3ccccc3)OC2=O)c(C(C)(C)C)cc1CO	cytopathic effect / XTT	CEM	-	EC95	-	7.5 µM
NC(=O)c1ccc(Cn2cc(CSc3nc(Cc4cccc5ccccc45)cc(=O)[nH]3)nn2)cc1	MTT	-	IIIB	EC50	-	>105 µM
Cc1cc(C)c(Nc2nc(NC3CCN(Cc4ccccc4)CC3)nc3nc[nH]c23)c(C)c1	MTT	MT-4	RES056	EC50	-	>25.95 µM
Cc1cn([C@H]2C[C@H](N=[N+]=[N-])[C@@H](CO)O2)c(=O)[nH]c1=O	cytopathic effect	MT-4	NL4-3	EC50	RT-K103N Y181C	0.003 µM
C/C(=N\O)c1cccc(CN2[C@H](COc3ccccc3)[C@H](O)[C@@H](O)[C@@H](COc3ccccc3)N(Cc3cccc(/C(C)=N/O)c3)S2(=O)=O)c1	cytopathic effect	MT-4	-	EC50	-	2.9 µM
C=S(=C)(C)c1ccc(CN2CCC(Nc3nc(Nc4c(C)cc(C)cc4C)c4[nH]cnc4n3)CC2)cc1	MTT	MT-4	IIIB	EC50	-	3.93 µM
Cc1cc(O)c2c(c1)C(=O)c1cc(O)cc(O[C@@H]3O[C@H](CO)[C@@H](O)[C@H](O)[C@H]3O)c1C2=O	syncytia	C8166	IIIB	EC50	-	11.29 µg/mL
O=c1[nH]c(SCc2cn(Cc3ccccc3)nn2)nc(Cc2c(Cl)cccc2Cl)c1I	MTT	-	RES056	EC50	-	>120 µM
COc1nc(=O)[nH]c2c1C(c1ccc(Cl)cc1)c1c(OC)nc(=O)[nH]c1O2	cytopathic effect	MT-4	IIIB	EC50	-	>347 µM
CCC(C)Oc1nc(Cc2cc(C)cc(C)c2)c(C)c(=O)[nH]1	cytopathic effect / MTT	MT-4	IIIB	EC50	-	0.8 µM
Fc1cccc(F)c1C1SCc2nc3ccccc3n21	cytopathic effect / XTT	CEM + CEM-SS	UC040-R (RT-Y181C)	EC50	RT-Y181C	>69 µM
COc1nc(Cc2cc(C)cc(C)c2)c(C)c(=O)[nH]1	cytopathic effect / MTT	MT-4	IIIB	EC50	-	>387 µM
CC(C)(c1cc2cnccc2o1)N1CCN(C[C@@H](O)C[C@@H](Cc2ccccc2)C(=O)N[C@H]2c3ccccc3OC[C@H]2O)[C@H](C(=O)NCCC(F)(F)F)C1	p24	MT-4	NL4-3	EC95	-	0.062 µM
Cc1occc1C(=S)Nc1ccc(Cl)c(/C=N/OC(C)(C)C)c1	cytopathic effect / XTT	CEM + CEM-SS	HEPT-resistant (RT P236L)	EC50	RT-P236L	0.2 µM
CC(C)CNC(=O)[C@@H]1CN(C(C)(C)c2cc3cnccc3o2)CCN1C[C@@H](O)C[C@@H](Cc1ccccc1)C(=O)N[C@H]1c2ccccc2OC[C@H]1O	p24	MT-4	NL4-3	EC95	-	0.015 µM
CCn1cc(C(=O)O)c(=O)c2cc(F)c(N3CCN(c4ccccc4OC)CC3)c(OC(F)F)c21	cytopathic effect / MTT	MT-4	IIIB	EC50	-	0.29 µM
Cc1cc(C)cc(Cc2[nH]c(=O)[nH]c(=O)c2C)c1	cytopathic effect / MTT	MT-4	IIIB	EC50	-	38 µM
Cc1ccnc2c1NC(=O)c1cccnc1N2C1CC1	MTT	MT-4	RES056	EC50	-	≥9.84 µM
CCCCCCCSc1nsc(NC(=O)Nc2ccccc2)n1	cytopathic effect	MT-4	L1	EC50	-	3.7 µM
CNC(=O)[C@@H](NC(=O)[C@H](OCc1ccccc1)[C@@H](O)[C@H](O)[C@@H](OCc1ccccc1)C(=O)N[C@H](C(=O)NC)C(C)C)C(C)C	cytopathic effect	MT-4	-	EC50	-	22.9 µM
N#Cc1ccccc1Cn1cc(CSc2nc(Cc3cccc4ccccc34)c(I)c(=O)[nH]2)nn1	MTT	-	IIIB	EC50	-	>75.93 µM
CCn1cc(C(=O)O)c(=O)c2cc(F)c(N3CCN(c4ncccn4)CC3)c(OC(F)F)c21	cytopathic effect / MTT	MOLT-4	IIIB	EC50	-	0.21 µM
CNC(=O)[C@H](Cc1ccc(O)cc1)NC(=O)[C@H](OCc1ccccc1)[C@H](O)[C@@H](O)[C@@H](OCc1ccccc1)C(=O)N[C@@H](Cc1ccc(O)cc1)C(=O)NC	cytopathic effect	MT-4	-	EC50	-	>67 µM

A second listing of 9 rows from above:

smiles,read by,cells,strain or isolate,endpoint,changes,result
Cc1cc(C)cc(Cc2[nH]c(=O)[nH]c(=O)c2C)c1,cytopathic effect / MTT,MT-4,IIIB,EC50,-,38 µM
CC(C)=CCN1Cc2cc(Cl)cc3[nH]c(=S)n(c23)C[C@@H]1C,syncytia,CEM,Pyr(RT-Y181C),EC50,RT-Y181C,6.2 µM
Cc1occc1C(=S)Nc1ccc(Cl)c(/C=N/OC(C)(C)C)c1,cytopathic effect / XTT,CEM + CEM-SS,HEPT-resistant (RT P236L),EC50,RT-P236L,0.2 µM
C/C=C/CSc1cc(NC(=S)c2ccsc2C)ccc1Cl,cytopathic effect / XTT,CEM + CEM-SS,NL4-3 (RT M184V),EC50,RT-M184V,0.1 µM
COc1cc(O)ccc1O[C@@H]1O[C@H](CO)[C@@H](O)[C@H](O)[C@H]1O,syncytia,C8166,IIIB,EC50,-,55.08 µg/mL
CCCCCc1ccc(-c2cc3cn(COCCO)c(=O)nc3o2)cc1,RT activity,PBMC,LAI,EC50,-,>100 µM
CNC(=O)[C@@H](NC(=O)[C@H](OCc1ccc(-c2ccccn2)cc1)[C@H](O)[C@@H](O)[C@@H](OCc1ccc(-c2ccccn2)cc1)C(=O)N[C@H](C(=O)NC)C(C)C)C(C)C,cytopathic effect,MT-4,-,EC50,-,0.64 µM
COc1cc([C@H]2c3cc(O)c(OC)cc3C[C@@H](CO)[C@@H]2COS(=O)(=O)[O-])ccc1O.[Na+],syncytia,C8166,IIIB,EC50,-,74.9 µg/mL
CCn1cc(C(=O)O)c(=O)c2cc(F)c(N3CCN(c4ccccc4OC)CC3)c(OC(F)F)c21,cytopathic effect / MTT,MT-4,IIIB,EC50,-,0.29 µM